Measured values taken from PMC12363188 (2025).

What was measured:
[1] = molecular target: T1, SARS-CoV-2 spike ectodomain (Se) (SARS-CoV-2, UniProt P0DTC2 14-1213); assay: SPR
[2] = molecular target: T1, SARS-CoV-2 spike ectodomain (Se); assay: SPR; remark: listed apart in the source

B1: Rhinolophus pusillus bat ACE2 ectodomain (residues 18 to 615) (domain or fragment)
chain: QSITEDKAKKFLNDFNSEAEDLSYQSSLASWDYNTNISDENVQKMDEAGAKWSAFYEEQSKIAKNYPLEEIQTDIVKRQLQILQQSGSPVLSEDKSKRLNSILNAMSTIYSTGKVCKPNNPQECLLLEPGLDNIMGTSKDYHERLWAWEGWRAEVGKQLRPLYEEYVVLKNEMARGYHYEDYGDYWRRDYETEESSGPGYSRDQLMKDVDRIFTEIKPLYEHLHAYVRAKLMDTYPLHISPTGCLPAHLLGDMWGRFWTNLYPLTVPFGQKPNIDVTDEMVKQGWDANRIFKEAEKFFVSVGLPNMTEGFWNNSMLTEPGDGRKVVCHPTAWDLGKGDFRIKMCTKVTMEDFLTAHHEMGHIQYDMAYASQPYLLRNGANEGFHEAVGEVMSLSVATPKHLKTMGLLSPDFREDDETEINFLLKQALNIVGTLPFTYMLEKWRWMVFKGEIPKEEWMKKWWEMKREIVGVVEPVPHDETYCDPASLFHVANDYSFIRYYTRTIFEFQFHEALCRIAQHNGPLHKCDISNSTDAGKKLHQMLSVGKSQAWTKTLEDIVGSRNMDVGPLLRYFKPLYTWLQEQSRKSYVGWNTDWSPYSD
koff [1]: 0.0112 s⁻¹ | Kd [2]: 26.9 nM
